According to US20150119245A1, “Method for Producing Shelf Stable Hypochlorous Acid Solutions” (priority 2013, published 2015):
Some values come without a unit; they compare only within their column.

Legend:
[1] = Window cleaner streak test, sprayed on glass and dried without wiping; conditions: dried without wiping, scale 1-10
[2] = Glass cleaner test with various soils on horizontal glass surface; conditions: 30 seconds, wiped, scale 1-10

[Na+].[OH-] [NaOH, sodium hydroxide]
level of streaking, Horizontal glass [1]: 10 (10=100% surface is streaked)
level of streaking, soil Butter [2]: 3
level of streaking, soil Mayonnaise [2]: 2
level of streaking, soil Milk [2]: 3
level of streaking, soil Starch [2]: 1 (1=0%—no streaks)
